Data from publication PMC7382501 (Nature Communications, 2020).

B1: FasR_(L98A) point mutant (natural protein)
chain: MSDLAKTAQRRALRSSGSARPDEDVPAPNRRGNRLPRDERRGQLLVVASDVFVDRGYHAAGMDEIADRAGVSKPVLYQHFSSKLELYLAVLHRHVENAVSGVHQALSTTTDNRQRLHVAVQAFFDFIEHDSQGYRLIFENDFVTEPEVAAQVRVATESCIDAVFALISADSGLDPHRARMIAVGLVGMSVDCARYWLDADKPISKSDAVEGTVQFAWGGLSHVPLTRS
B2: FasR_(L106F) point mutant (natural protein)
chain: B1 chain with A98L, L106F
B3: FasR_(F123A) point mutant (natural protein)
chain: B1 chain with A98L, F123A

Molecular target: the molecule itself
Test: SEC

Protein	stoichiometry N
B1	2
B2	2
B3	2

Positions count from the first letter of the chain named. Numbers in names are those of the source.
